A mixed list of measured activities; the numbers were collected in NIAID ChemDB.

Common to all: tests in culture; organism: Cytomegalovirus; measure: EC50

Blank or dashed fields: not listed here. Lines come from different laboratories, so protocols vary. a–b is a range or a potency band. ECn: concentration that inhibits the pathogen or its effect by n%.

SMILES,strain or isolate,cells,read by,value
Nc1nc2c(nnn2C[C@H]2CC[C@@H](CO)C2)c(=O)[nH]1,AD169,HEL,cytopathic effect,>200 µg/mL
C[C@H](COc1cc(N)nc(N)n1)OCP(=O)(O)O,DAVIS,-,cytopathic effect,>180 µM
Nc1nc(N)c2ncn(CC(CO)OCP(=O)(O)O)c2n1,DAVIS,HEL,plaque count,3 µg/mL
Nc1ncnc2c1ncn2[C@@H]1C=C(CO)[C@@H](O)[C@H]1O,AD169,HEL,cytopathic effect,1.1 µg/mL
Nc1cc(OC[C@H](CO)OCP(=O)(O)O)nc(N)n1,DAVIS,-,cytopathic effect,139 µM
OC[C@H]1O[C@@H](n2c(Cl)nc3cc(Cl)c(Cl)cc32)[C@H](O)[C@@H]1O,-,-,-,0.2 µM
Nc1ncnc2c1ncn2C[C@@H](CO)OCP(=O)(O)O,DAVIS,-,cytopathic effect,0.63 µM
Nc1nc2c(ncn2CCC(CO)CO)c(=O)[nH]1,-,-,-,10–100 µM
Nc1nc(Cl)c2nnn(C[C@H]3CC[C@@H](CO)C3)c2n1,DAVIS,HEL,cytopathic effect,>200 µg/mL
Nc1ncnc2c1ncn2CCOCP(=O)(O)O,AD169,HEL,cytopathic effect,40 µg/mL
Nc1nc2c(ncn2C[C@]2(CO)C[C@H]2CO)c(=O)[nH]1,-,-,-,10–100 µM
Nc1ncc2ncn(CCOCP(=O)(O)O)c2n1,AD169,HEL,plaque count,200 µg/mL
O=C([O-])CN(CCN(CC(=O)[O-])CC(=O)[O-])CCN(CC(=O)[O-])CC(=O)[O-].[Ca+2].[Na+].[Na+].[Na+],-,HFF,-,152 µM
Nc1ccn(C[C@@H](CO)OCP(=O)(O)O)c(=O)n1,DAVIS,HEL,cytopathic effect,0.038 µg/mL
OC[C@H]1O[C@@H](n2cnc3cc(Cl)c(Cl)cc32)[C@H](O)[C@@H]1O,-,-,-,8 µM
Nc1nc2c(ncn2CCOCP(=O)(O)O)c(=O)[nH]1,DAVIS,HEL,cytopathic effect,0.7 µg/mL
Nc1nc(Cl)c2ncn(C[C@H]3CC[C@@H](CO)C3)c2n1,AD169,HEL,cytopathic effect,>5 µg/mL

Repeating the first 2 entries:

SMILES,strain or isolate,cells,read by,value
Nc1nc2c(nnn2C[C@H]2CC[C@@H](CO)C2)c(=O)[nH]1,AD169,HEL,cytopathic effect,>200 µg/mL
C[C@H](COc1cc(N)nc(N)n1)OCP(=O)(O)O,DAVIS,-,cytopathic effect,>180 µM